Pooled drug test results. Numbers come from NIAID ChemDB, via PubChem.

Common to all: host cell toxicity; cell line: MT-4; endpoint: CC50

CCn: concentration that lowers growth or viability of the cells by n%. Lines come from different laboratories, so protocols vary.

C[C@H](CCC(=O)O)[C@H]1CC[C@H]2[C@@H]3CC[C@@H]4C[C@H](O)CC[C@]4(C)[C@H]3CC[C@]12C ; value: 47 µg/mL
CC1(C)C=Cc2c(cc(O)c3c(=O)c4c(oc23)-c2ccc(O)cc2OC(C(C)(C)O)C4)O1 ; value: 12 µg/mL
Nc1ncnc2c1ncn2C1CCC1 ; value: 277 µM
CN=C1N(C)C(=O)OC12[C@@H](CO[Si](C)(C)C(C)(C)C)O[C@@H](n1cc(C)c(=O)n(C)c1=O)[C@@H]2O[Si](C)(C)C(C)(C)C ; value: 21.9 µM
Cc1cc(C)cc(S(=O)(=O)c2c(C(=O)NCCn3cccc3)[nH]c3ccc(Cl)cc23)c1 ; value: >1 µM
C[C@H](CCC(=O)O)[C@H]1CC[C@H]2C3[C@H](OS(=O)(=O)O)C[C@@H]4C[C@H](OS(=O)(=O)O)CC[C@]4(C)[C@H]3CC[C@]12C ; value: >500 µg/mL
CC(C)=CCc1c(-c2ccc(O)cc2O)oc2c([C@H]3C=C(C)C[C@@H](c4ccc(O)cc4O)[C@@H]3C(=O)c3ccc(O)cc3O)c(O)cc(O)c2c1=O ; value: 66 µg/mL
COc1ccc2nc3n(c2c1)C(c1c(F)cccc1F)SC3 ; value: >392 µM
Cc1cn([C@@H]2O[C@H](CO[Si](C)(C)C(C)(C)C)C3(OS(=O)(=O)C=C3N)[C@H]2O[Si](C)(C)C(C)(C)C)c(=O)n(C)c1=O ; value: 227 µM
Nc1nc2c(ncn2[C@H]2CO[C@H](CP(=O)(O)O)O2)c(=O)[nH]1 ; value: >332 µM
O=C(c1ccccc1)c1ccc2c(c1)nc1n2C(c2c(F)cccc2Cl)SC1 ; value: 26.7 µM
Nc1nc2c(ncn2[C@@H]2C[C@H](CO)[C@H]2CO)c(=O)[nH]1 ; value: 29 µM
Fc1ccc2nc3n(c2c1)C(c1c(F)cccc1F)SC3 ; value: 162 µM
C[C@H](Cn1cnc2c(N)nc(N)nc21)OCP(=O)(O)O ; value: >100 µg/mL
COc1ccc2nc3n(c2c1)C(c1c(Cl)cccc1Cl)SC3 ; value: 292 µM
Cc1cc(C)cc(S(=O)(=O)c2c(C(=O)NCCc3ccccc3)[nH]c3ccc(Cl)cc23)c1 ; value: >1 µM
CC1(C)C=Cc2cc(-c3coc4cc(O)cc(O)c4c3=O)cc(O)c2O1 ; value: 22 µg/mL
O=C(c1ccccc1)c1ccc2c(c1)nc1n2C(c2c(Cl)cccc2Cl)SC1 ; value: 28.3 µM
CC(C)[C@H](NC(=O)OCc1ccccc1)C(=O)N[C@@H](Cc1ccccc1)C(=O)C(F)(F)CCc1ccccn1 ; value: >100 µM
Cc1cn([C@H]2CO[C@H](CP(=O)(O)O)O2)c(=O)[nH]c1=O ; value: >332 µM
Nc1ncnc2c1ncn2CCOCP(=O)(O)O ; value: 229 µM
COc1ccc2c(c1)nc1n2C(c2c(Cl)cccc2Cl)SC1 ; value: 1.7 µM
C[C@H](CC(=O)O)[C@H]1CC[C@H]2[C@@H]3CC[C@@H]4C[C@H](OS(=O)(=O)O)CC[C@]4(C)[C@H]3C[C@H](OS(=O)(=O)O)[C@]12C ; value: >500 µg/mL
COCOc1cc(O)c(C(=O)/C=C/c2ccccc2)c(OCOC)c1 ; value: 8 µg/mL
C[C@H](Cn1cnc2c(=O)[nH]c(N)nc21)OCP(=O)(O)O ; value: >100 µg/mL
C[C@H](CCC(=O)O)[C@H]1CC[C@H]2[C@@H]3[C@H](O)C[C@@H]4C[C@H](O)CC[C@]4(C)[C@H]3CC[C@]12C ; value: 62 µg/mL
Cc1cc(C)cc(S(=O)(=O)c2c(C(=O)NCc3ccccc3)[nH]c3ccc(Cl)cc23)c1 ; value: >1 µM
CC(C)[C@H](NC(=O)OCc1ccccn1)C(=O)N[C@@H](Cc1ccccc1)C(=O)C(F)(F)CCc1ccccc1 ; value: 21 µM
C[C@H](CCC(=O)O)[C@H]1CC[C@H]2C3[C@H](OS(=O)(=O)O)C[C@@H]4C[C@H](O)CC[C@]4(C)[C@H]3CC[C@]12C ; value: 307 µg/mL
O=C(c1ccccc1)c1ccc2nc3n(c2c1)C(c1c(F)cccc1Cl)SC3 ; value: 1.2 µM
C=C1C[C@@H](n2cnc3c(=O)[nH]c(N)nc32)[C@@H]1CO ; value: >100 µM
Fc1cccc(F)c1C1SCc2nc3ccccc3n21 ; value: 48.6 µM
Nc1nc2c(ncn2[C@H]2CO[C@@H](CP(=O)(O)O)O2)c(=O)[nH]1 ; value: >332 µM
C[C@H](CCC(=O)NCCS(=O)(=O)O)[C@H]1CC[C@H]2[C@@H]3CC[C@@H]4C[C@H](O)CC[C@]4(C)C3CC[C@]12C ; value: 370 µg/mL
Nc1nc2c(ncn2CCOCP(=O)(O)O)c(=O)[nH]1 ; value: 2.4 µM
Cc1cc(C)cc(S(=O)(=O)c2c(C(=O)NCc3ccccc3)[nH]c3ccc([N+](=O)[O-])cc23)c1 ; value: >1 µM
O=c1[nH]cnc2c1ncn2[C@H]1CC[C@@H](CO)O1 ; value: >500 µM
Nc1nc(N)c2ncn(CCOCP(=O)(O)O)c2n1 ; value: 6 µg/mL

Repeating the first 4 entries:

structure | value
C[C@H](CCC(=O)O)[C@H]1CC[C@H]2[C@@H]3CC[C@@H]4C[C@H](O)CC[C@]4(C)[C@H]3CC[C@]12C | 47 µg/mL
CC1(C)C=Cc2c(cc(O)c3c(=O)c4c(oc23)-c2ccc(O)cc2OC(C(C)(C)O)C4)O1 | 12 µg/mL
Nc1ncnc2c1ncn2C1CCC1 | 277 µM
CN=C1N(C)C(=O)OC12[C@@H](CO[Si](C)(C)C(C)(C)C)O[C@@H](n1cc(C)c(=O)n(C)c1=O)[C@@H]2O[Si](C)(C)C(C)(C)C | 21.9 µM